Tested on: glycoprotein D (gD) of HSV
Test: Isothermal titration calorimetry with glycoprotein D
Assay type: binding
Conditions: ITC, 25°C
Method: Isothermal titration calorimetry (ITC) experiments were conducted using ITC200 instruments (GE Healthcare, USA) equipped with a 200 μL sample cell and a 40 μL syringe. Thirteen injections were applied. The first data point was excluded. BSA protein and viral protein concentrations in the cell were approximately 50 μM and 1 mg/mL, respectively, and ligand concentrations in the syringe were roughly 2 mM. They were centrifuged at 2000g for 2 min to remove bubbles. The titration was performed at 25 or 37 °C, with data analyzed using MicroCal PEAQ ITC software. Baseline correction was applied, and Nitpic/Sedphat was used for automated integration to ensure precise binding parameter determination.

SMILES	-∆TS (Glycoprotein D)	∆G (Glycoprotein D)	∆H (Glycoprotein D)
O=S(=O)(O)OCCCCCCCCCCCSCc1cc(CSCCCCCCCCCCCOS(=O)(=O)O)cc(CSCCCCCCCCCCCOS(=O)(=O)O)c1 [B3C11SO4]	-4.17 kcal/mol	-6.21 kcal/mol	-2.04 kcal/mol
O=S(=O)(O)OCCCCCCSCc1cc(CSCCCCCCOS(=O)(=O)O)cc(CSCCCCCCOS(=O)(=O)O)c1 [B3C6SO4]	-4.61 kcal/mol	-6.21 kcal/mol	-1.6 kcal/mol
O=S(=O)(O)CCCCCCSCc1cc(CSCCCCCCS(=O)(=O)O)cc(CSCCCCCCS(=O)(=O)O)c1 [B3C6SO3]	-3.59 kcal/mol	-6.61 kcal/mol	-3.02 kcal/mol
O=S(=O)(O)OCCCCCCCCCCCSCc1cc2c(cc1CSCCCCCCCCCCCOS(=O)(=O)O)OCCOCCOc1cc(CSCCCCCCCCCCCOS(=O)(=O)O)c(CSCCCCCCCCCCCOS(=O)(=O)O)cc1OCCOCCO2 [C4C11SO4]	-4.38 kcal/mol	-5.25 kcal/mol	-0.875 kcal/mol
O=S(=O)(O)CCCCCCCCCCCSCc1cc2c(cc1CSCCCCCCCCCCCS(=O)(=O)O)OCCOCCOc1cc(CSCCCCCCCCCCCS(=O)(=O)O)c(CSCCCCCCCCCCCS(=O)(=O)O)cc1OCCOCCO2 [C4C11SO3]	-4.72 kcal/mol	-5.56 kcal/mol	-0.839 kcal/mol
O=S(=O)(O)CCCCCCCCCCCSCc1cc(CSCCCCCCCCCCCS(=O)(=O)O)cc(CSCCCCCCCCCCCS(=O)(=O)O)c1 [B3C11SO3]	-5.04 kcal/mol	-6.32 kcal/mol	-1.28 kcal/mol
